Experimental data: PubChem BioAssay AID624099 (ICCB-Longwood, 2012)
Purpose: 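Knock-downs relieving repression by E2 of an HPV18 LCR luciferase reporter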 (primary screen). Cell system: human C33A cervical carcinoma cells (HPV-negative) stably expressing BPV1 E2 and an HPV18 LCR luciferase reporter. Reagent: siRNA pool against human genes, 40 nM. Time to read-out: 72 h. Measured: 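Per-well luciferase luminescence, z-scored on each plate against the plate mean and SD with control wells left out, then averaged across three replicate plates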. Scale: mean z-score and z-score: higher = stronger reporter signal, weaker E2 silencing. Active means: 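Hit if mean z-score reaches 2 and two or more of three replicate z-scores also reach 2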.
This is one part, drawn at random, of about 21,000 deposited reagents. 497 of them (2.4%) were called active. 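Higher z means weaker E2 silencing; only reporter increases were scored, and knock-downs that hurt cell survival may mask genuine repressor factors.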 A number with no mark means an inactive call.

For BCDIN3D (BCDIN3 domain containing RNA methyltransferase) the deposit lists mean z-score 0.94; z-score, replicate A = 1.04; z-score, replicate B = 0.73; z-score, replicate C = 1.05.
With knock-down of ZMAT3 (zinc finger matrin-type 3), the screen gave mean z-score -0.48; z-score, replicate A = -0.81; z-score, replicate B = -0.24; z-score, replicate C = -0.37.
Knock-down of STAP2 (signal transducing adaptor family member 2) came out at: mean z-score 1.18; z-score, replicate A = 1.23; z-score, replicate B = 1.21; z-score, replicate C = 1.09.
TAC4 (tachykinin precursor 4) gave mean z-score -1.78; z-score, replicate A = -1.91; z-score, replicate B = -1.6; z-score, replicate C = -1.84.
SEC22A (SEC22 homolog A, vesicle trafficking protein) showed mean z-score 0.19; z-score, replicate A = 0; z-score, replicate B = -0.06; z-score, replicate C = 0.62.
Against VWA3B (von Willebrand factor A domain containing 3B), the entry reads mean z-score 0.62; z-score, replicate A = 0.47; z-score, replicate B = 0.48; z-score, replicate C = 0.91.
For HMMR (hyaluronan mediated motility receptor), the entry reads mean z-score 0.11; z-score, replicate A = 0.75; z-score, replicate B = -0.17; z-score, replicate C = -0.25.
Knock-down of TPRKB (TP53RK binding protein) came out at: mean z-score 0.53; z-score, replicate A = 0.87; z-score, replicate B = 0.27; z-score, replicate C = 0.44.
LMBR1 (limb development membrane protein 1) showed mean z-score -0.11; z-score, replicate A = -0.34; z-score, replicate B = 0; z-score, replicate C = 0.02.
For SPN (sialophorin), the values are mean z-score 3.54 (active); z-score, replicate A = 3.02; z-score, replicate B = 2.87; z-score, replicate C = 4.73.
Against TPT1P4 (TPT1 pseudogene 4), the values are mean z-score -0.21; z-score, replicate A = -0.06; z-score, replicate B = -0.32; z-score, replicate C = -0.24.
With knock-down of NPLOC4 (NPL4 homolog, ubiquitin recognition factor) the results were mean z-score 0.46; z-score, replicate A = 0.85; z-score, replicate B = 0.45; z-score, replicate C = 0.06.
CR2 (complement C3d receptor 2) showed mean z-score 0.34; z-score, replicate A = 0.26; z-score, replicate B = 0.3; z-score, replicate C = 0.48.
Against FCRL1 (Fc receptor like 1) the deposit lists mean z-score 0.25; z-score, replicate A = 0.29; z-score, replicate B = 0.36; z-score, replicate C = 0.08.
After knock-down of MTFR1L (mitochondrial fission regulator 1 like), the record shows mean z-score -0.04; z-score, replicate A = -0.05; z-score, replicate B = -0.03; z-score, replicate C = -0.04.
Depletion of MSMB (microseminoprotein beta) gave: mean z-score 0.62; z-score, replicate A = 0.48; z-score, replicate B = 0.48; z-score, replicate C = 0.89.
ZNG1E (Zn regulated GTPase metalloprotein activator 1E) gave mean z-score 0.3; z-score, replicate A = 0.13; z-score, replicate B = 0.49; z-score, replicate C = 0.29.
Against FOXN4 (forkhead box N4) the deposit lists mean z-score 0.88; z-score, replicate A = 0.9; z-score, replicate B = 0.32; z-score, replicate C = 1.43.
Silencing of PARS2 (prolyl-tRNA synthetase 2, mitochondrial) came out at: mean z-score -1.08; z-score, replicate A = -1.17; z-score, replicate B = -1.16; z-score, replicate C = -0.92.
Knock-down of COX14 (cytochrome c oxidase assembly factor COX14) resulted in: mean z-score 1.68; z-score, replicate A = 1.58; z-score, replicate B = 1.48; z-score, replicate C = 1.99.
After knock-down of TSHR (thyroid stimulating hormone receptor), the record shows mean z-score -0.4; z-score, replicate A = -0.96; z-score, replicate B = -0.03; z-score, replicate C = -0.22.
Against KPNA2 (karyopherin subunit alpha 2) the deposit lists mean z-score 0.22; z-score, replicate A = 0.38; z-score, replicate B = 0.02; z-score, replicate C = 0.26.
SERPINI2 (serpin family I member 2) scored mean z-score -0.23; z-score, replicate A = -0.05; z-score, replicate B = -0.64; z-score, replicate C = -0.01.
LRRC42 (leucine rich repeat containing 42) gave mean z-score 0.82; z-score, replicate A = 0.79; z-score, replicate B = 0.7; z-score, replicate C = 0.99.
Depletion of PRH2 (proline rich protein HaeIII subfamily 2) came out at: mean z-score 0.35; z-score, replicate A = 0.47; z-score, replicate B = 0.17; z-score, replicate C = 0.43.
Silencing of KCNJ4 (potassium inwardly rectifying channel subfamily J member 4) resulted in: mean z-score 0.09; z-score, replicate A = -0.06; z-score, replicate B = 0.3; z-score, replicate C = 0.04.
SECISBP2 (SECIS binding protein 2) showed mean z-score -0.5; z-score, replicate A = -0.37; z-score, replicate B = -0.54; z-score, replicate C = -0.59.

3 successive reagents already listed, for reference:
PARS2 (prolyl-tRNA synthetase 2, mitochondrial) — mean z-score = -1.08; z-score, replicate A = -1.17; z-score, replicate B = -1.16; z-score, replicate C = -0.92
COX14 (cytochrome c oxidase assembly factor COX14) — mean z-score = 1.68; z-score, replicate A = 1.58; z-score, replicate B = 1.48; z-score, replicate C = 1.99
TSHR (thyroid stimulating hormone receptor) — mean z-score = -0.4; z-score, replicate A = -0.96; z-score, replicate B = -0.03; z-score, replicate C = -0.22
